Legend:
[1] = Selectivity index, ratio of CC50 for human A549 cells to IC50 for group 2 influenza A H7N1 pseudotyped virus infected in A549 cells; format: toxicity, cell-based
[2] = Selectivity index, ratio of CC50 for human A549 cells to EC50 for group 2 influenza A virus H3N2 (A/Hong Kong-11/1968) infected in human A549 cells
[3] = Selectivity index, ratio of CC50 for human A549 cells to IC50 for VSV pseudotyped virus infected in A549 cells; format: toxicity, cell-based
[4] = Selectivity index, ratio of CC50 for human A549 cells to IC50 for […] influenza A H5N1 pseudotyped virus infected in A549 cells; format: toxicity, cell-based
[5] = Selectivity index, ratio of CC50 for human A549 cells to EC50 for group 2 influenza A virus LPAI H7N7 (A/Netherlands/219/2003) infected in human A549 cells
[6] = Selectivity index, ratio of CC50 for human A549 cells to EC50 for group 2 influenza A virus H3N2 (A/Victoria361/2011) infected in human A549 cells

| SMILES | Ratio CC50/IC50 [1] | Ratio CC50/EC50 [2] | Ratio CC50/IC50 [3] | Ratio CC50/IC50 [4] | Ratio CC50/EC50 [5] | Ratio CC50/EC50 [6] |
| --- | --- | --- | --- | --- | --- | --- |
| c1ccc(-c2nc3ncccn3c2NC2CCCCC2)cc1 | 1500 | 1400 | 1 | 2 | 400 | 130 |
| Cc1cc(Br)ccc1-c1nc2ncccn2c1NC1CCCCC1 | 260 | 130 | 1 | 1 | – | – |
| Oc1ccc(-c2nc3ncccn3c2NC2CCCCC2)cc1 | > 1900 | > 270 | > 1 | > 2 | – | > 67 |
| CCOC(=O)C1=C[C@@H](OC(CC)CC)[C@H](NC(C)=O)[C@@H](N)C1 [OSELTAMIVIR] | – | > 4500 | – | – | – | < 10 |
| COc1ccc(-c2nc3ncccn3c2NC2CCCCC2)cc1 | > 2700 | > 3300 | 1 | < 1 | – | > 150 |
| Fc1ccc(-c2nc3ncccn3c2NC2CCCCC2)cc1 | 4300 | 310 | 1 | 2 | – | 230 |
| Brc1ccc(-c2nc3ncccn3c2NC2CCCCC2)cc1 | > 71 | > 520 | > 2 | > 1 | > 500 | > 67 |
